Compound potency records, mixed from different reports. Data source: NIAID ChemDB in PubChem.

All rows: tests in culture; species: Hepatitis C virus; read-out: EC50

Blank or dashed fields: not listed here.

compound | cells | setting | changes | strain or isolate | method | value
O=C(O)/C=C/c1ccc(NC(=O)C2(NC(=O)c3ccc4c(c3)nc(-c3ccccn3)n4C3CCCC3)CCCC2)cc1 | Huh7 | - | - | - | - | 5–50 µM
COC(=O)/C=C1\S/C(=N/N=C/c2ccc(OC)cc2)NC1=O | Huh 5-2 | - | - | 1b Con1 (replicon) | luciferase / luminescence | 14.7 µM
CN1CCN([C@@H](C(=O)N2CCC[C@H]2C(=O)Nc2ccc(C#Cc3ccc(NC(=O)[C@@H]4CCCN4C(=O)[C@@H](c4ccccc4)N4CCN(C)CC4)cc3)cc2)c2ccccc2)CC1 | Huh7 | - | - | GT1a | ELISA | <0.0046 µM
O=C(NC1(C(=O)Nc2ccc3[nH]c(C(=O)O)cc3c2)CCCC1)c1ccc2c(c1)nc(-c1ccoc1)n2C1CCCCC1 | Huh7 | - | - | - | - | 5–50 µM
CC1(C)CC(=O)C2=C(C1)Nc1c(O)cccc1N(C(=O)c1ncccn1)[C@H]2c1ccc(OCc2ccccc2)cc1F | - | - | - | 1b | luciferase / reporter gene / replicon | 0.27 µM
CCOC(=O)c1c(CSc2ccccc2)n(C)c2cc(N=[N-])c3c(c12)CN(C)CO3 | Huh7 | - | - | Genotype 1A | ELISA | 11.9 µM
CCC(=O)c1c(-c2ccc(F)cc2)oc2cc(N(CCO)S(C)(=O)=O)c(C3CC3)cc12 | H77 | - | - | - | luciferase | 0.0085 µM
CC1CCC(C(=O)N(CC2CCOCC2)c2cc(-c3ccc(-c4cn5ccsc5n4)cc3)sc2C(=O)O)CC1 | - | - | - | 1b | replicon / ELISA | 0.001–0.0049 µM
COC(=O)N[C@@H](C(=O)N(C)[C@@H](C)c1ncc(-c2ccc(-c3ccc(-c4cnc([C@H]5CCCN5C(=O)[C@@H](c5ccccc5)N(C)C)[nH]4)cc3)cc2)[nH]1)c1ccccc1 | - | - | - | 1b | - | 0.00001–0.000999 µM
OCc1nc(-c2cnc(N3CCC(Oc4ccccc4C(F)(F)F)CC3)s2)no1 | Huh7 | - | - | SGR (gt 1b) | PCR | 0.062 µM
CC1(C)CC(=O)C2=C(C1)Nc1c(O)cccc1N(C(=O)CC(=O)NS(=O)(=O)C1CC1)C2c1ccc(Oc2ccccc2Br)cc1Cl | - | - | - | 1b | luciferase / reporter gene / replicon | >100 µM
O=C(O)/C=C/c1ccc(NC(=O)C2(NC(=O)c3ccc4c(c3)nc(-c3ccc[nH]3)n4C3CCCCC3)CCCC2)cc1 | Huh7 | - | - | - | - | ≤5 µM
CC1CCC(C(=O)N(c2cc(-c3ccc(-c4cc5ncccc5o4)cc3)sc2C(=O)O)C2CCOC2)CC1 | - | - | - | 1a | replicon / ELISA | 0.005–0.0099 µM
CC1(C)CC(=O)C2=C(C1)Nc1c(O)cccc1N(C(=O)c1cccc(Cl)n1)[C@H]2c1ccc(OCc2ccccc2)cc1F | - | - | - | 1b | luciferase / reporter gene / replicon | 0.2 µM
Cn1c(C(=O)O)cc2cc(NC(=O)C3(NC(=O)c4ccc5c(C6CCCCC6)c6n(c5c4)CCNc4ccccc4-6)CCCC3)ccc21 | Huh7 | - | - | - | replicon | 0.01–1 µM
CCOC(=O)c1c(CSc2ccccc2)n(C)c2cc(Br)c(O)c(CN(N3CCN(CCO)CC3)N3CCN(CCO)CC3)c12 | Huh7 | - | - | Genotype 1A | ELISA | 22.2 µM
CC[C@@H](NC(=O)c1ccc2c(c1)nc(-c1ccoc1)n2C1CCCCC1)C(=O)Nc1ccc(/C=C/C(=O)O)cc1 | Huh7 | - | - | - | - | 5–50 µM
CCOC(=O)c1c(CSc2ccccn2)n(C)c2cc(Br)c3c(c12)CN(C)CO3 | Huh7 | - | - | Genotype 1A | ELISA | 12.5 µM
CC(C)N(C(=O)c1ccc(Cl)cc1F)c1cc(-c2ccc(-c3cc4ncccn4n3)cc2)sc1C(=O)O | - | - | - | 1b | luciferase / replicon | 0.01–0.05 µM
CN(C)[C@@H](C(=O)N1CCC[C@H]1c1ncc(-c2ccc(-c3ccc(-c4cnc([C@@H]5CCCN5C(=O)[C@@H](c5ccccc5)N(C)C)[nH]4)nc3)cc2)[nH]1)c1ccccc1 | - | - | - | 1b | - | 0.00001–0.000999 µM
O=C(N[C@@H](C(=O)N1CCC[C@H]1c1ncc(-c2ccc(-c3ccc(-c4cnc([C@@H]5CCCN5C(=O)[C@H](NC(=O)C5CC5)c5ccccc5)s4)cc3)cc2)s1)c1ccccc1)C1CC1 | Huh7.5 | - | Y93H | genotype 2a | luciferase / reporter gene | 0.76 µM
O=C(Nc1ccc(Cl)cc1)c1cnn(-c2ccc(Cl)cc2)c1-n1cccc1 | Huh 5-2 | - | - | Con1 (gt 1b) | luciferase / replicon | 13.7 µM
COC(=O)N[C@H](C(=O)N1CCC[C@@H]1c1ncc(-c2ccc(-c3ccc(-c4cnc([C@@]5(C)CCCN5C(=O)[C@@H](N=C(NC#N)N(C)C)C(C)C)[nH]4)cc3)cc2)[nH]1)C(C)C | - | - | - | 1b | - | 0.00001–0.000999 µM
C[C@@H](NC(=O)c1ccc2c(c1)nc(-c1ccccn1)n2C1CCCCC1)C(=O)Nc1ccc(/C=C/C(=O)O)cc1 | Huh7 | - | - | - | - | ≤5 µM
CC(C)N(C(=O)c1ccc(Cl)cc1Cl)c1cc(-c2ccc(-c3cc4nccc(N)n4n3)cc2)sc1C(=O)O | - | - | - | 1b | replicon / ELISA | 0.005–0.01 µM
OCc1nnc(-c2ccc(N3CCC(Oc4cc(F)ccc4Br)CC3)nn2)o1 | Huh7 | 50% human serum | - | GT1b | PCR | >40 µM
Cc1ccccc1NC(=O)CCC(=O)N1c2cccc(O)c2NC2=C(C(=O)CC(C)(C)C2)C1c1ccc(OCc2ccccc2)cc1F | - | - | - | 1b | luciferase / reporter gene / replicon | 3.43 µM
C[C@@]1(O)[C@H](O)[C@@H](CO)O[C@H]1n1cnc2c(N)ncnc21 | n4mBid | - | - | Jc1 | ATP | 0.09 µM
COC(=O)/C=C1\S/C(=N/N=C/c2cc(OC)c(O)c(OC)c2)NC1=O | Huh 5-2 | - | - | 1b Con1 (replicon) | luciferase / luminescence | 22.2 µM
COCCN(C(=O)c1ccc(Cl)cc1Cl)c1cc(-c2ccc(-c3cc4ncccn4n3)cc2)sc1C(=O)O | - | - | - | 1b | luciferase / replicon | <0.005 µM
CC1CCC(C(=O)N(c2cc(-c3ccc(-c4cc5ncccn5n4)cc3)sc2C(=O)O)C2CCOCC2)CC1 | - | - | - | 1b | replicon / ELISA | 0.001–0.0049 µM
CC(C)CC[C@@]1(C)C(=O)C(C2=NS(=O)(=O)c3cc(NS(C)(=O)=O)ccc3N2)=C(O)c2ccccc21 | Huh7 | - | - | 3a | luciferase | 3.879 µM
CCOC(=O)c1c(CS(=O)c2ccccc2)n(C)c2cc(-c3cccnc3)c(O)c(CN(C)C)c12 | Huh7.3 | - | - | - | ELISA | 6.6 µM
Nc1cnn(C[C@H](CO)OCP(=O)(O)O)c(=O)n1 | Huh 5-2 | - | - | - | cytopathic effect | >75 µg/mL
COC(=O)/C=C1\S/C(=N/N=C/c2ccccc2OCc2ccccc2)NC1=O | Huh 5-2 | - | - | 1b Con1 (replicon) | luciferase / luminescence | 3.9 µM
O=C(O)/C=C/c1ccc(NC(=O)CNC(=O)c2ccc3c(c2)nc(-c2ccoc2)n3C2CCCCC2)cc1 | Huh7 | - | - | - | - | 5–50 µM
CC1CCC(C(=O)N(c2cc(-c3ccccc3)sc2C(=O)O)C2CCOCC2)CC1 | - | - | - | 1a | replicon / ELISA | 0.1–0.49 µM
CC(=O)N(CCN(Cc1ccccc1)C(C)=O)Cc1ccccc1 | Huh 7 replicon cells | - | - | - | GFP | >50 µM
O=C(O)c1ccc2c(C3CCCCC3)c3n(c2c1)C(O)c1ccccc1-3 | Huh7 | - | - | - | replicon | >10 µM
CC(C)[C@H](NC(=O)NC1CCCC1)C(=O)N1CC[C@H]2[C@H]1C(C1CCC1)C(=O)N2C(=O)C1CC1 | Huh7 | - | - | - | ELISA | 3.7 µM
CCOC(=O)c1c(CS(=O)(=O)c2ccccc2)n(C)c2cc(-c3cccnc3)c(O)c(CN(C)C)c12 | Huh7.3 | - | - | - | ELISA | 14.3 µM
O=C(O)/C=C/c1ccc(NC(=O)C2(NC(=O)c3ccc4c(c3)nc(-c3ccoc3)n4C3CCCCC3)CC2)cc1 | Huh7 | - | - | - | - | 5–50 µM
COC(=O)/C=C1\S/C(=N/N=C/C2CCCCC2)NC1=O | Huh 5-2 | - | - | 1b Con1 (replicon) | luciferase / luminescence | 16.5 µM
CCOCCN(C(=O)C1CCC(C)CC1)c1cc(-c2ccc(-c3cc4ncccn4n3)cc2)sc1C(=O)O | - | - | - | 1b | replicon / ELISA | 0.005–0.0099 µM
O=C(Cn1nnc2cc3cccnc3c(Cl)c21)Cn1nnc2cc3cccnc3c(Cl)c21 | Huh7 | - | - | 1b | MTT | >100 µM
CC(C)C(=O)N1c2cccc(O)c2NC2=C(C(=O)CC(C)(C)C2)C1c1ccc(COc2ccccc2)o1 | - | - | - | 1b | luciferase / reporter gene / replicon | 3.68 µM
C[C@H](NC(=O)[C@@H](c1ccccc1)N(C)C)c1ncc(-c2ccc(-c3ccc(-c4cnc([C@H]5CCCN5C(=O)[C@@H](c5ccccc5)N(C)C)[nH]4)cn3)cc2)[nH]1 | - | - | - | 1b | - | 0.00001–0.000999 µM
Cc1ccc(C(=O)N(c2cc(-c3ccc(-c4cc5ncccn5n4)cc3)sc2C(=O)O)C(C)C)c(C)c1 | - | - | - | 1b | replicon / ELISA | 0.1–0.5 µM
CC1(C)CC(=O)C2=C(C1)Nc1c(O)cccc1N(C(=O)c1cnccn1)[C@H]2c1ccc(OCc2ccccc2)cc1F | - | - | - | 1b | luciferase / reporter gene / replicon | 0.31 µM
COCC(C)N(C(=O)C1CCC(C)CC1)c1cc(-c2ccccc2)sc1C(=O)O | - | - | - | 1b | replicon / ELISA | 0.1–0.49 µM
CC(C)N(C(=O)c1ccc(Cl)cc1Cl)c1cc(-c2ccc(-c3cn4ccsc4n3)cc2)sc1C(=O)O | - | - | - | 1a | replicon / ELISA | 0.1–0.5 µM
COC(=O)N[C@@H](C(=O)N1CCC[C@H]1c1ncc(-c2ccc(-c3ccc(-c4cnc([C@@H]5CCCN5C(=O)Cc5ccccc5)[nH]4)cc3)cc2)[nH]1)c1ccccc1 | - | - | - | 1b | - | 0.001–0.099 µM
CC(C)(C)OC(=O)N1CCN([C@@H](c2ccccc2C(F)(F)F)[C@@H](c2ccccc2C(F)(F)F)n2cc(Cn3cnc(=N)c4[nH]cnc43)nn2)CC1 | - | - | - | - | absorbance | 0.03 µM
COC(=O)c1ccc2c(C3CCCCC3)c3n(c2c1)CC(C(=O)N1CCOCC1)=Cc1cccnc1-3 | Huh7 | - | - | - | replicon | 1–10 µM
O=C(Nc1ccccc1)c1cc(-n2cccc2)n(-c2ccc(Cl)cc2)n1 | Huh 5-2 | - | - | Con1 (gt 1b) | luciferase / replicon | 26.9 µM
COCC(C)N(C(=O)C1CCC(C)CC1)c1cc(-c2ccc(-c3cc4ncccn4n3)cc2)sc1C(=O)O | - | - | - | 1b | replicon / ELISA | 0.005–0.0099 µM
O=C1N[C@H]2C(=O)N[C@H]3C(=O)N[C@H](C(=O)N[C@H](C(=O)O)c4cc(O)cc(O)c4-c4cc3ccc4O)[C@H](O)c3ccc(c(Cl)c3)Oc3cc2cc(c3O)Oc2ccc(cc2Cl)C[C@H]2NC(=O)[C@H](Nc3ccc(-c4ccccc4)cc3)c3ccc(O)c(c3)Oc3cc(O)cc(c3)[C@@H]1NC2=O | - | - | - | Huh Mono | luciferase | 5.1 µM
O=C(O)/C=C/c1ccc(NC(=O)C2(NC(=O)c3ccc4c(c3)nc(-c3ccoc3)n4C3CCCCC3)CCCCC2)cc1 | Huh7 | - | - | - | - | ≤5 µM
O=C(Nc1ccccc1)c1cnn(-c2ccc(Cl)cc2)c1-n1cccc1 | Huh 5-2 | - | - | Con1 (gt 1b) | luciferase / replicon | >241.2 µM
COC(=O)/C=C1\S/C(=N/N=C/c2c(F)cccc2Cl)NC1=O | Huh 5-2 | - | - | 1b Con1 (replicon) | luciferase / luminescence | 3.26 µM
CC(=O)N1c2cccc(O)c2NC2=C(C(=O)CC(C)(C)C2)C1c1ccc(OCc2ccccn2)cc1Cl | - | - | - | 1b | luciferase / reporter gene / replicon | 10.01 µM
N#Cc1c(C(=O)Nc2ccccc2)nn(-c2ccccc2)c1-n1cccc1 | Huh 5-2 | - | - | Con1 (gt 1b) | luciferase / replicon | 39.6 µM
CN(C)[C@@H](C(=O)N1CCC[C@@H]1c1ncc(-c2ccc(-c3ccc(-c4cnc([C@H]5CCCN5C(=O)[C@@H](c5ccccc5)N(C)C)[nH]4)nn3)cc2)[nH]1)c1ccccc1 | - | - | - | 1b | - | 0.001–0.099 µM
CCOCCN(C(=O)C1CCC(C)CC1)c1cc(-c2ccc(-c3cc4nccc(N)n4n3)cc2)sc1C(=O)O | - | - | - | 1b | replicon / ELISA | 0.001–0.0049 µM
CO[C@@H]1CC[C@]2(C)C3=CC[C@]4(C)[C@@H]([C@H](C)CC[C@H](O)C(C)(C)O)CC[C@@]4(C)[C@@H]3CC[C@H]2C1(C)C | n4mBid cells | - | - | Jc1 | ATP | 3.73 µM
CCCNC(=S)N=Nc1c(O)[nH]c2ccccc12 | - | - | - | TYPE 2 | plaque count | >25 µM
O=C(O)/C=C/c1ccc(NC(=O)C2(NC(=O)c3ccc4c(c3)nc(-c3cccs3)n4C3CCCCC3)CCCC2)cc1 | Huh7 | - | - | - | - | ≤5 µM
C=C1CC[C@@](C)([C@H](C)C[C@@H]2C=C(C)C(=O)O2)[C@@]12CCC1=C2CC[C@H]2C(C)(C)C(=O)CC[C@]12C | n4mBid cells | - | - | Jc1 | ATP | >100 µM

Again, the opening 4 rows:

| compound | cells | setting | changes | strain or isolate | method | value |
|---|---|---|---|---|---|---|
| O=C(O)/C=C/c1ccc(NC(=O)C2(NC(=O)c3ccc4c(c3)nc(-c3ccccn3)n4C3CCCC3)CCCC2)cc1 | Huh7 | - | - | - | - | 5–50 µM |
| COC(=O)/C=C1\S/C(=N/N=C/c2ccc(OC)cc2)NC1=O | Huh 5-2 | - | - | 1b Con1 (replicon) | luciferase / luminescence | 14.7 µM |
| CN1CCN([C@@H](C(=O)N2CCC[C@H]2C(=O)Nc2ccc(C#Cc3ccc(NC(=O)[C@@H]4CCCN4C(=O)[C@@H](c4ccccc4)N4CCN(C)CC4)cc3)cc2)c2ccccc2)CC1 | Huh7 | - | - | GT1a | ELISA | <0.0046 µM |
| O=C(NC1(C(=O)Nc2ccc3[nH]c(C(=O)O)cc3c2)CCCC1)c1ccc2c(c1)nc(-c1ccoc1)n2C1CCCCC1 | Huh7 | - | - | - | - | 5–50 µM |

ECn is the concentration giving n% inhibition of infection, replication or growth. Lines come from different laboratories, so protocols vary. Two numbers with a dash give a range or band.